Measurements as given in publication PMC10310857 (Nature Communications, 2023).

Target: Pst_13661 (Puccinia striiformis f. sp. tritici, UniProt A0A0L0V0Y3, T32S)
Test: Inhibitor screening and Ki determination, fluorescamine deacetylase assay with (GlcNAc)3
Type: biochemical
Conditions: read-out: Pst_13661 Ki; Dixon plots, (GlcNAc)3 0.5, 0.2 and 0.1 mM

## O=C(NO)c1ccccc1 [Compound 1, benzohydroxamic acid]
  pKi: 5.01

pKi: −log10 of the molar value.
